We go through 31 molecules from PubChem BioAssay AID602233 (National Center for Advancing Translational Sciences (NCATS), 2012).

Only a part is listed here, and it is no random draw. The source made the active and inactive calls. Calls come from the whole dose curve; as a rule, active = well fitted inhibition curve with a large enough effect; inconclusive = small, poorly fitted or top-dose-only effect; inactive = no such curve, though single readings can be large or run the other way.
% is set by controls: 0 for no effect and ±100 for the full control effect.

For the experiment, the target named is Phosphoglycerate kinase, glycosomal (Trypanosoma brucei brucei) (UniProt P07378). Kind of experiment: qHTS Assay to Find Inhibitors of Phosphoglycerate Kinase. Note: nearly all actives have a fitted effect of over 60% in size. To be noted: PGK/GAPDH coupled, Kinase-Glo luminescence, 60 min; activity change, negative = inhibition: at 57.5 µM (top of the series) unless noted. The gist of the method:
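Luminescent ATP detection (Kinase-Glo Plus) follows a 60-minute room-temperature incubation, with wells lacking PGK as controls. Buffer: 100 mM TEA (pH 7.6), 5 mM MgCl2, 0.01% Tween-20. Coupling enzyme GAPDH (100 nM final) supplies unstable 1,3-BPG in-well.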
(In qHTS, concentration-response curves come from the screen itself.)
For `CC1CCC(C(C)C)C(OP(=O)(Nc2ccccn2)c2ccccc2)C1` (stereo unspecified), the activity change, negative = inhibition was inactive: 2.15%.

`Cc1ccc(C(=O)OC2CN3CCC2CC3)cc1` (stereo unspecified): the activity change, negative = inhibition was inactive: -4.46%.

As to `Nc1cccc([As](=O)(O)c2ccccc2)c1`, the activity change, negative = inhibition was inactive: -3.09%.

Consider `Cc1ccc(OCC(=O)OC2CN3CCC2CC3)cc1` (stereo unspecified), for which the activity change, negative = inhibition result was “inactive”.

`O=[As](O)(c1cccs1)c1cccs1`: the activity change, negative = inhibition was inactive: -8.87%.

Turning to `O=P1(Nc2ccc(Br)cn2)COc2ccccc2OC1`, the activity change, negative = inhibition was inactive: 11.2%.

Consider `NS(=O)(=O)c1cccc(NC(=O)COC(=O)C(O)(c2ccccc2)c2ccccc2)c1`, for which the activity change, negative = inhibition entry was “inactive”.

As to `O=P1(Nc2ncccn2)COc2ccccc2OC1`, the activity change, negative = inhibition was inactive: 2.82%.

With `Nc1ccccc1[As](=O)(O)c1ccccc1`, the activity change, negative = inhibition is inactive: -9.8%.

As to `O=C(O)COc1ccc([As](=O)(O)O)cc1[N+](=O)[O-]`, the activity change, negative = inhibition was inactive: 0.742%.

For the molecule `CCOP1(=S)c2c(C)nn(CCC#N)c2N=C(c2ccccc2F)N1C` (stereo unspecified), the activity change, negative = inhibition is inactive: -10.2%.

`O=P(Nc1nccs1)(c1ccccc1)c1nc2ccccc2s1` (stereo unspecified): the activity change, negative = inhibition entry is “inactive”.

As to `CS(=O)(=O)c1cc([N+](=O)[O-])c2no[n+]([O-])c2c1`, the activity change, negative = inhibition is inactive: -6.17%.

Regarding `N#CCCN(C(=O)COC(=O)C(O)(c1ccccc1)c1ccccc1)c1ccc(F)cc1`, the activity change, negative = inhibition was inactive: -7.24%.

Regarding `CN(C(=O)Cc1ccccc1)[C@@H]1CC[C@]2(CCCO2)C[C@H]1N1CCCC1`, the activity change, negative = inhibition is inactive: -2.2%.

Take `CCOP1(=S)c2c(C)nn(CCC#N)c2N=C(c2ccc(F)cc2)N1C` (stereo unspecified): the activity change, negative = inhibition is inactive: 0.117%.

Take `O=[N+]([O-])c1ccc2c(c1)nnn2O`: the activity change, negative = inhibition is inactive: -6.09%.

`CN(C)C(=O)c1cc([N+](=O)[O-])cc2c1-c1c(cc([N+](=O)[O-])cc1[N+](=O)[O-])C2=O`: the activity change, negative = inhibition was inactive: -20.6%.

With `CN(C(=O)Cc1ccc(Cl)c(Cl)c1)[C@H]1CC[C@@]2(CCCO2)C[C@@H]1N1CCCC1`, the activity change, negative = inhibition is inactive: 9.27%.

For the molecule `NC(=O)Nc1ccc([As](=O)(O)O)cc1`, the activity change, negative = inhibition was inactive: -4.64%.

With `Cc1cccc(OCC(=O)OC2CN3CCC2CC3)c1` (stereo unspecified), the activity change, negative = inhibition is inactive: -1.74%.

With `O=[As](O)(c1cccc(O)c1)c1cccc(O)c1`, the activity change, negative = inhibition is inactive: 7.77%.

For `O=C(OC1CN2CCC1CC2)c1ccc(Cl)cc1` (stereo unspecified), the activity change, negative = inhibition was inactive: -7.08%.

On to `O=[As](O)(O)c1cccnc1`, for which the activity change, negative = inhibition was inactive: -9.73%.

Take `COc1cc(C(=O)NCC2(N3CCOCC3)CCCCC2)cc(Cl)c1OC(C)C`: the activity change, negative = inhibition entry is “inactive”.

As for `CS(=O)(=O)c1ccc(Cl)c(NC(=O)COC(=O)C(O)(c2ccccc2)c2ccccc2)c1`, the activity change, negative = inhibition is inactive: -3.08%.

As to `COc1cc(C2NCCC3(OCCO3)C2(C)C)cc(OC)c1OC` (stereo unspecified), the activity change, negative = inhibition entry was “inactive”.

With `CCOP(=O)(Nc1cccc2ccccc12)OCC`, the activity change, negative = inhibition was inactive: -1.99%.

In the case of `Cc1ccc(NCCc2c([N+](=O)[O-])cc([N+](=O)[O-])cc2[N+](=O)[O-])cc1`, the activity change, negative = inhibition was inactive: -0.12%.

For `Nc1cccc2c([As](=O)(O)O)cccc12`, the activity change, negative = inhibition is inactive: -5.7%.

In the case of `CCCOP(=S)(Nc1nc(N)cc(=O)[nH]1)OCCC`, the activity change, negative = inhibition was inactive: 8.79%.
